Record: PubChem BioAssay AID624099 (ICCB-Longwood, 2012)
Test: 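Host factors E2 relies on to silence an HPV18 LCR reporter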 (primary screen). System: human C33A cervical carcinoma cells (HPV-negative) stably expressing BPV1 E2 and an HPV18 LCR luciferase reporter. Reagents: siRNA pool against human genes, 40 nM. Duration: 72 h. Measured: 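HPV18 LCR reporter light per well, converted to plate-wise z-scores that exclude control wells, and averaged over triplicate plates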. Reading the numbers: mean z-score and z-score: higher = stronger reporter signal, weaker E2 silencing. Call rule: 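Hit if mean z-score reaches 2 and two or more of three replicate z-scores also reach 2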.
The whole screen tested about 21,000 reagents; below is an unselected part. 497 of all reagents (2.4%) were called active. 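Higher z means weaker E2 silencing; only reporter increases were scored, and knock-downs that hurt cell survival may mask genuine repressor factors.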

| gene | mean z-score | z-score, replicate A | z-score, replicate B | z-score, replicate C | Call |
| --- | --- | --- | --- | --- | --- |
| FAM174B | 0.4 | 0.44 | 0.25 | 0.52 | inactive |
| LOC391661 (retired record) | 0.09 | -0.01 | 0.01 | 0.28 | inactive |
| OR10W1 | -0.12 | 0.17 | -0.17 | -0.35 | inactive |
| KLK10 | 0.52 | 0.78 | 0.44 | 0.33 | inactive |
| LEKR1 | 1.13 | 1.17 | 1.2 | 1.03 | inactive |
| IPO9 | 0.29 | -0.03 | 0.35 | 0.54 | inactive |
| EFNA2 | -0.87 | -0.9 | -0.76 | -0.95 | inactive |
| MOGAT2 | -0.74 | -0.74 | -0.76 | -0.73 | inactive |
| LOC402564 (retired record) | 0.26 | 0.45 | 0.32 | 0 | inactive |
| HIKESHI | -0.93 | -0.7 | -1.17 | -0.92 | inactive |
| TAFA5 | 0.12 | 0.25 | -0.05 | 0.16 | inactive |
| FBXL16 | -0.55 | -0.53 | -1.04 | -0.09 | inactive |
| MYL12BP2 | 0.05 | 0.43 | -0.12 | -0.17 | inactive |
| FANK1 | 0.43 | 0.32 | 0.87 | 0.11 | inactive |
| RBPJ | 0.19 | 0.04 | 0.23 | 0.29 | inactive |

Entries listed so far whose target name begins with M or m (2):
| gene | mean z-score | z-score, replicate A | z-score, replicate B | z-score, replicate C | Call |
| --- | --- | --- | --- | --- | --- |
| MOGAT2 | -0.74 | -0.74 | -0.76 | -0.73 | inactive |
| MYL12BP2 | 0.05 | 0.43 | -0.12 | -0.17 | inactive |

Additional entries follow.
| gene | mean z-score | z-score, replicate A | z-score, replicate B | z-score, replicate C | Call |
| --- | --- | --- | --- | --- | --- |
| RC3H2 | -1.11 | -1.02 | -1.12 | -1.2 | inactive |
| ELOVL2 | 0.3 | -0.32 | 0.27 | 0.96 | inactive |
| OVAAL | 0.19 | -0.07 | 0.18 | 0.47 | inactive |
| CNTN2 | -0.44 | -0.54 | -0.24 | -0.52 | inactive |
| C1orf94 | 0.07 | 0.41 | -0.35 | 0.15 | inactive |
| MRPS28 | -0.33 | -0.14 | -0.24 | -0.63 | inactive |
| GPR135 | -0.34 | -0.49 | -0.36 | -0.18 | inactive |
| B3GAT1 | -1.16 | -1.14 | -1.02 | -1.32 | inactive |
